{
  "source": "paper PMC13028475",
  "about": "“Discovery and cryoEM structure of FPM13, a periplasmic metalloprotein unique to Francisella” (2026)",
  "target": "FPM13 (FTN_1118), FPM13-ALFA (Francisella tularensis, UniProt A0Q6Y9)",
  "experiment": "fluorescence decrease on thiol re-oxidation to cystine (ex […] nm, em […]-550 nm)",
  "settings": "10 µM BODIPY-cysteine; TBS; 0.08 mg/mL FPM13-ALFA (Figure 8A legend); TCEP-resin removed",
  "data": [
    {"smiles": "Cc1cc(C)n2c1C=C1C=CC(CCC(=O)N[C@@H](CS)C(=O)O)=[N+]1[B-]2(F)F", "values": [
      {"measurement": "fluorescence decrease on thiol re-oxidation to cystine (ex 475 nm, em 500-550 nm)", "value": "the wild-type FPM13 rapidly re-oxidized the cysteine to cystine"}
    ]}
  ]
}
